US20240109955A1 (published 2024)

Legend:
Test in all cases: cell-based or functional assay
[1] = molecular target: SARS-CoV-2 spike (S) protein of Omicron sublineage BJ.1 (R346T, V445P, G446S) (SARS-CoV-2, UniProt P0DTC2 14-1273)
[2] = molecular target: SARS-CoV-2 spike (S) protein of Omicron sublineage BA.2.75 (G446S) (SARS-CoV-2, UniProt P0DTC2 14-1273)
[3] = molecular target: SARS-CoV-2 spike protein, Omicron variant (B.1.1.529) (SARS-CoV-2, UniProt P0DTC2 14-1273)
[4] = molecular target: SARS-CoV-2 spike (S) protein, Omicron sublineage BF.7 (R346T, F486V) (SARS-CoV-2, UniProt P0DTC2 14-1273)
[5] = molecular target: SARS-CoV-2 spike (S) protein, Omicron sublineage BQ 1.1 (R346T, K444T, F486V) (SARS-CoV-2, UniProt P0DTC2 14-1273)
[6] = molecular target: SARS-CoV-2 spike (S) protein, Omicron sublineage BA.4.7 (R346S, F486V) (SARS-CoV-2, UniProt P0DTC2 14-1273)
[7] = molecular target: SARS-CoV-2 spike (S) protein, Omicron sublineage BA.4.6 (R346T, F486V) (SARS-CoV-2, UniProt P0DTC2 14-1273)

| Binder | IC50, pseudovirus neutralization [1] [nM] | IC80, pseudovirus neutralization [1] [nM] | IC50, pseudovirus neutralization [2] [nM] | IC80, pseudovirus neutralization [2] [nM] | other results |
| --- | --- | --- | --- | --- | --- |
| MX837 tetravalent, trispecific antibody (A19-61, A19-46, A23-58H/A23-58L93VGLTG, A23-58H/A23-58L93VGLTG) (trispecific antibody) chain 1: QTVVTQEPSFSVSPGGTVTLTCGLSSGSVSTAYFPSWYQQTPGQAPRTLIYGTNTRSSGVPDRFSGSILGNKAALTITGAQADDESDYYCVLYMGRGIVVFGGGTKLTVLGGSSGEIVLTQSPGTLSLSPGERATLSCRASQSVSSSYLAWYQQKPGQAPRLLIYSASSRATGIPDRFSGSGSGTDFTLTISRLEPEDFAVYFCQQYVGLTGWTFGQGTKVEIKGGGGSGGSGSGGGGSASGSGQMQLVQSGPEVKKPGTSVKVSCKASGFTFTSSAVQWVRQRQRLEWIGWIVVGSGNTNYAQKFQERVTITRDMSTSTAYMELSSLRSEDTAVYYCAAPNCSNVVCYDGFDIWGQGTMVTVSSGGSSGQVQLVESGGGVVQPGRSLRLSCAASGFTLSSYGMHWVRQAPGKGLEWVAVISYDGSNKYYVDSVKGRFTISRDNSKNTLYLQMNSLRAEDTAVYYCRWAYWELLPDYYYGMDVWGQGTTVTVSSASGGSGDKTHTCPPCPAPELLGGPSVFLFPPKPKDTLMISRTPEVTCVVVDVSHEDPEVKFNWYVDGVEVHNAKTKPREEQYNSYVVSVLTVLHQDWLNGKEYKCKVSNKALPAPIEKTISKAKGQPREPQVYTLPPCRDELTKNQVSLWCLVKGFYPSDIAVEWESNGQPENNYKTTPPVLDSDGSFFKKLTVDKSRWQQGNVFSCSVLHEALHSHYTQKSLSLSPG chain 2: DIQMTQSPSSVSASVGDRVIITCRASQGISSWLAWYQQKPGKAPKVLIYDASSLQSGVPSRFSGSGYGTDFTLTISSLQPEDSATYYCQQAKSFPITFGQGTRLEIKGGSSGEIVLTQSPGTLSLSPGERATLSCRASQSVSSSYLAWYQQKPGQAPRLLIYSASSRATGIPDRFSGSGSGTDFTLTISRLEPEDFAVYFCQQYVGLTGWTFGQGTKVEIKGGGGSGGSGSGGGGSASGSGQMQLVQSGPEVKKPGTSVKVSCKASGFTFTSSAVQWVRQRQRLEWIGWIVVGSGNTNYAQKFQERVTITRDMSTSTAYMELSSLRSEDTAVYYCAAPNCSNVVCYDGFDIWGQGTMVTVSSGGSSGQVQLVESGGGVVQPGRSLRLSCAASGFTFSSYAFHWVRQAPGKGLEWVAVISYDGSNQYYADSVKGRFTISRDNSKNTLYLQMNSLRADDTAVYYCARDLAIAVAGTWHYYNGMDVWGQGTTVTVSSASGGSGDKTHTCPPCPAPELLGGPSVFLFPPKPKDTLMISRTPEVTCVVVDVSHEDPEVKFNWYVDGVEVHNAKTKPREEQYNSYVVSVLTVLHQDWLNGKEYKCKVSNKALPAPIEKTISKAKGQPREPQVCTLPPSRDELTKNQVSLSCAVKGFYPSDIAVEWESNGQPENNYKTTPPVLDSDGSFFLVSKLTVDKSRWQQGNVFSCSVLHEALHSHYTQKSLSLSPG | 15 | 97 | 1 | 3 |  |
| MX829 tetravalent, bispecific antibody (two VH/VL pairs of A19-61 and two VH/VL pairs of A23-58H/A23-58L93VGLTG) (bispecific antibody) DIQMTQSPSSVSASVGDRVIITCRASQGISSWLAWYQQKPGKAPKVLIYDASSLQSGVPSRFSGSGYGTDFTLTISSLQPEDSATYYCQQAKSFPITFGQGTRLEIKGGSSGEIVLTQSPGTLSLSPGERATLSCRASQSVSSSYLAWYQQKPGQAPRLLIYSASSRATGIPDRFSGSGSGTDFTLTISRLEPEDFAVYFCQQYVGLTGWTFGQGTKVEIKGGGGSGGSGSGGGGSASGSGQMQLVQSGPEVKKPGTSVKVSCKASGFTFTSSAVQWVRQRQRLEWIGWIVVGSGNTNYAQKFQERVTITRDMSTSTAYMELSSLRSEDTAVYYCAAPNCSNVVCYDGFDIWGQGTMVTVSSGGSSGQVQLVESGGGVVQPGRSLRLSCAASGFTFSSYAFHWVRQAPGKGLEWVAVISYDGSNQYYADSVKGRFTISRDNSKNTLYLQMNSLRADDTAVYYCARDLAIAVAGTWHYYNGMDVWGQGTTVTVSSASGGSGDKTHTCPPCPAPELLGGPSVFLFPPKPKDTLMISRTPEVTCVVVDVSHEDPEVKFNWYVDGVEVHNAKTKPREEQYNSYVVSVLTVLHQDWLNGKEYKCKVSNKALPAPIEKTISKAKGQPREPQVYTLPPSRDELTKNQVSLTCLVKGFYPSDIAVEWESNGQPENNYKTTPPVLDSDGSFFKKLTVDKSRWQQGNVFSCSVLHEALHSHYTQKSLSLSPG | 16 | 113 | 1 | 3 |  |
| A23-58.1HC/58.1LC_93VGLTG (antibody, V domains shown) VH: QMQLVQSGPEVKKPGTSVKVSCKASGFTFTSSAVQWVRQRQRLEWIGWIVVGSGNTNYAQKFQERVTITRDMSTSTAYMELSSLRSEDTAVYYCAAPNCSNVVCYDGFDIWGQGTMVTVSS VL: EIVLTQSPGTLSLSPGERATLSCRASQSVSSSYLAWYQQKPGQAPRLLIYSASSRATGIPDRFSGSGSGTDFTLTISRLEPEDFAVYFCQQYVGLTGWTFGQGTKVEIK |  |  |  |  | IC50, pseudovirus neutralization [3]: 3.3 nM; IC80, pseudovirus neutralization [3]: 11.2 nM |
| MX830 + MX831 (other) chain 1: QTVVTQEPSFSVSPGGTVTLTCGLSSGSVSTAYFPSWYQQTPGQAPRTLIYGTNTRSSGVPDRFSGSILGNKAALTITGAQADDESDYYCVLYMGRGIVVFGGGTKLTVLGGSSGEIVLTQSPGTLSLSPGERATLSCRASQSVSSSYLAWYQQKPGQAPRLLIYSASSRATGIPDRFSGSGSGTDFTLTISRLEPEDFAVYFCQQYGGLTGWTFGQGTKVEIKGGGGSGGSGSGGGGSASGSGQMQLVQSGPEVKKPGTSVKVSCKASGFTFTSSAVQWVRQRQRLEWIGWIVVGSGNTNYAQKFQERVTITRDMSTSTAYMELSSLRSEDTAVYYCAAPNCSNVVCYDGFDIWGQGTMVTVSSGGSSGQVQLVESGGGVVQPGRSLRLSCAASGFTLSSYGMHWVRQAPGKGLEWVAVISYDGSNKYYVDSVKGRFTISRDNSKNTLYLQMNSLRAEDTAVYYCRWAYWELLPDYYYGMDVWGQGTTVTVSSASGGSGDKTHTCPPCPAPELLGGPSVFLFPPKPKDTLMISRTPEVTCVVVDVSHEDPEVKFNWYVDGVEVHNAKTKPREEQYNSYVVSVLTVLHQDWLNGKEYKCKVSNKALPAPIEKTISKAKGQPREPQVYTLPPSRDELTKNQVSLTCLVKGFYPSDIAVEWESNGQPENNYKTTPPVLDSDGSFFKKLTVDKSRWQQGNVFSCSVLHEALHSHYTQKSLSLSPG chain 2: DIQMTQSPSSVSASVGDRVIITCRASQGISSWLAWYQQKPGKAPKVLIYDASSLQSGVPSRFSGSGYGTDFTLTISSLQPEDSATYYCQQAKSFPITFGQGTRLEIKGGSSGEIVLTQSPGTLSLSPGERATLSCRASQSVSSSYLAWYQQKPGQAPRLLIYSASSRATGIPDRFSGSGSGTDFTLTISRLEPEDFAVYFCQQYGGLTGWTFGQGTKVEIKGGGGSGGSGSGGGGSASGSGQMQLVQSGPEVKKPGTSVKVSCKASGFTFTSSAVQWVRQRQRLEWIGWIVVGSGNTNYAQKFQERVTITRDMSTSTAYMELSSLRSEDTAVYYCAAPNCSNVVCYDGFDIWGQGTMVTVSSGGSSGQVQLVESGGGVVQPGRSLRLSCAASGFTFSSYAFHWVRQAPGKGLEWVAVISYDGSNQYYADSVKGRFTISRDNSKNTLYLQMNSLRADDTAVYYCARDLAIAVAGTWHYYNGMDVWGQGTTVTVSSASGGSGDKTHTCPPCPAPELLGGPSVFLFPPKPKDTLMISRTPEVTCVVVDVSHEDPEVKFNWYVDGVEVHNAKTKPREEQYNSYVVSVLTVLHQDWLNGKEYKCKVSNKALPAPIEKTISKAKGQPREPQVYTLPPSRDELTKNQVSLTCLVKGFYPSDIAVEWESNGQPENNYKTTPPVLDSDGSFFKKLTVDKSRWQQGNVFSCSVLHEALHSHYTQKSLSLSPG |  |  |  |  | IC50, pseudovirus neutralization [4]: 3.91 nM; IC80, pseudovirus neutralization [4]: 24.8 nM; IC50, pseudovirus neutralization [5]: 422 nM; IC80, pseudovirus neutralization [5]: 3820 nM; IC50, pseudovirus neutralization [6]: 8.45 nM; IC80, pseudovirus neutralization [6]: 30.6 nM; IC50, pseudovirus neutralization [7]: 21.5 nM; IC80, pseudovirus neutralization [7]: 45.4 nM |
| MX834 tetravalent, trispecific antibody (A23-58H/A23-58L93VGLTG, A19-46, A23-58H/A23-58L93VGLTG, A19-61) (trispecific antibody) chain 1: QTVVTQEPSFSVSPGGTVTLTCGLSSGSVSTAYFPSWYQQTPGQAPRTLIYGTNTRSSGVPDRFSGSILGNKAALTITGAQADDESDYYCVLYMGRGIVVFGGGTKLTVLGGSSGEIVLTQSPGTLSLSPGERATLSCRASQSVSSSYLAWYQQKPGQAPRLLIYSASSRATGIPDRFSGSGSGTDFTLTISRLEPEDFAVYFCQQYVGLTGWTFGQGTKVEIKGGGGSGGSGSGGGGSASGSGQMQLVQSGPEVKKPGTSVKVSCKASGFTFTSSAVQWVRQRQRLEWIGWIVVGSGNTNYAQKFQERVTITRDMSTSTAYMELSSLRSEDTAVYYCAAPNCSNVVCYDGFDIWGQGTMVTVSSGGSSGQVQLVESGGGVVQPGRSLRLSCAASGFTLSSYGMHWVRQAPGKGLEWVAVISYDGSNKYYVDSVKGRFTISRDNSKNTLYLQMNSLRAEDTAVYYCRWAYWELLPDYYYGMDVWGQGTTVTVSSASGGSGDKTHTCPPCPAPELLGGPSVFLFPPKPKDTLMISRTPEVTCVVVDVSHEDPEVKFNWYVDGVEVHNAKTKPREEQYNSYVVSVLTVLHQDWLNGKEYKCKVSNKALPAPIEKTISKAKGQPREPQVYTLPPCRDELTKNQVSLWCLVKGFYPSDIAVEWESNGQPENNYKTTPPVLDSDGSFFKKLTVDKSRWQQGNVFSCSVLHEALHSHYTQKSLSLSPG chain 2: QTVVTQEPSFSVSPGGTVTLTCGLSSGSVSTAYFPSWYQQTPGQAPRTLIYGTNTRSSGVPDRFSGSILGNKAALTITGAQADDESDYYCVLYMGRGIVVFGGGTKLTVLGGSSGEIVLTQSPGTLSLSPGERATLSCRASQSVSSSYLAWYQQKPGQAPRLLIYSASSRATGIPDRFSGSGSGTDFTLTISRLEPEDFAVYFCQQYVGLTGWTFGQGTKVEIKGGGGSGGSGSGGGGSASGSGQMQLVQSGPEVKKPGTSVKVSCKASGFTFTSSAVQWVRQRQRLEWIGWIVVGSGNTNYAQKFQERVTITRDMSTSTAYMELSSLRSEDTAVYYCAAPNCSNVVCYDGFDIWGQGTMVTVSSGGSSGQVQLVESGGGVVQPGRSLRLSCAASGFTLSSYGMHWVRQAPGKGLEWVAVISYDGSNKYYVDSVKGRFTISRDNSKNTLYLQMNSLRAEDTAVYYCRWAYWELLPDYYYGMDVWGQGTTVTVSSASGGSGDKTHTCPPCPAPELLGGPSVFLFPPKPKDTLMISRTPEVTCVVVDVSHEDPEVKFNWYVDGVEVHNAKTKPREEQYNSYVVSVLTVLHQDWLNGKEYKCKVSNKALPAPIEKTISKAKGQPREPQVYTLPPCRDELTKNQVSLWCLVKGFYPSDIAVEWESNGQPENNYKTTPPVLDSDGSFFKKLTVDKSRWQQGNVFSCSVLHEALHSHYTQKSLSLSPG | 3 | 87 | 1 | 2 |  |
